The list shows a part of the results, in another mix than the full data. Calls of active or inactive are those of the source. No stated cut-off is given here; in the data, active means inhibition above about 30%; inactive means the rest.

The assay concerns Crimean-Congo hemorrhagic fever virus L polyprotein viral ovarian tumor (vOTU) protease domain. Put plainly: CCHFV vOTU protease inhibitors, primary screen, biochemical, Pep-AMC substrate, fluorescence (AID 651958). Further: 0% = vehicle wells with enzyme and 100% = no enzyme wells. To be noted: at 11.5 µM, stronger effect = higher value.
A word on the inhibition: it is the drop in the measured response relative to a control, in per cent. For the compound `O=P(Nc1nc2ccccc2s1)(c1ccccc1)c1ccccc1`, the inhibition is inactive: 0.55%.

Take `C[C@H]1OP(=O)(Oc2ccccc2)[C@H](O)[C@H](O)[C@H]1N=[N+]=[N-]` (stereo partly specified): the inhibition was inactive: -4%.

With `Nc1ccc(CCCCOc2ccccc2)cc1`, the inhibition is inactive: 12.3%.

With `COc1ccc(N)c([N+](=O)[O-])c1[N+](=O)[O-]`, the inhibition is inactive: -2.32%.

For the compound `CN(C)C1(CNC(=O)c2ccc(Cl)c(S(N)(=O)=O)c2)CCCCC1`, the inhibition was inactive: -11.3%.

With `O=P(Nc1ccccn1)(c1ccc(Br)cc1)c1ccc(Br)cc1`, the inhibition is inactive: -1.67%.

As to `C/C(N)=N\P(=O)(OCc1ccccc1)OCc1ccccc1`, the inhibition was inactive: 2.06%.

Consider `Nc1ccc([As](=O)(O)c2ccc([N+](=O)[O-])cc2)cc1`, for which the inhibition was inactive: -13.6%.

Turning to `C(Cc1nn[nH]n1)Cc1nn[nH]n1`, the inhibition was inactive: -14.3%.

As to `O=C(OC1CN2CCC1CC2)c1cccc(Cl)c1` (stereo unspecified), the inhibition was inactive: -5.35%.

Consider `CC(=O)NC(SC(=S)N(C)C)C(Cl)(Cl)Cl` (stereo unspecified), for which the inhibition is inactive: -5.35%.

For `O=[N+]([O-])c1ncn(CCn2cnc([N+](=O)[O-])n2)n1`, the inhibition was inactive: -6.46%.

For `O=[As](O)(c1ccccc1)c1ccc(O)cc1`, the inhibition was inactive: 7.2%.

Regarding `c1nnnn1CCn1cnnn1`, the inhibition was inactive: -1.28%.

For the compound `O=P(Nc1nccs1)(c1ccccc1)c1ccccc1`, the inhibition was inactive: 0.8%.

With `CC(C)C(=O)NC(Sc1ccccc1)C(Cl)(Cl)Cl` (stereo unspecified), the inhibition is inactive: 1.36%.

On to `CCc1cc(O)c([N+](=O)[O-])c(C)c1[N+](=O)[O-]`, for which the inhibition was inactive: 11.1%.

With `CC(C)(C)C(=O)NC(Sc1ccccc1)C(Cl)(Cl)Cl` (stereo unspecified), the inhibition was inactive: 0.23%.

On to `O=P1(Nc2nc3ccc(Cl)cc3s2)COc2ccccc2O1` (stereo unspecified), for which the inhibition is inactive: -2.17%.

Turning to `CCOc1ccc(C2=NCC(CBr)S2)cc1` (stereo unspecified), the inhibition was inactive: -8.2%.

Turning to `CC(=O)Nc1ccc([As](=O)(O)O)c(O)c1`, the inhibition is inactive: 0.66%.

In the case of `CC(=O)Nc1ccc(Oc2c([N+](=O)[O-])cc([N+](=O)[O-])cc2[N+](=O)[O-])cc1`, the inhibition is inactive: 12.2%.

With `N#C/C(=C\c1ccc(N(CCBr)CCBr)cc1)C(N)=O`, the inhibition was inactive: 3.48%.

In the case of `CC(=O)c1ccc(N2CC2c2ccncc2)cc1` (stereo unspecified), the inhibition is inactive: -0.64%.

Take `COC(=O)C1(C)COP(=O)(NCc2ccccc2)OC1` (stereo unspecified): the inhibition is inactive: 17.6%.

Turning to `Cc1ccccc1CN(C)C(=O)COC(=O)C(O)(c1ccccc1)c1ccccc1`, the inhibition was inactive: 9.09%.

Regarding `C[C@@H]1C=CCP(=O)(Oc2ccccc2)O1` (stereo partly specified), the inhibition is inactive: 1.49%.

In the case of `C[C@H]1OP(=O)(Oc2ccccc2)C[C@@H]2O[C@@H]21` (stereo partly specified), the inhibition was inactive: -6.58%.

Take `O=P1(N(CCCl)CCCl)OCCC2CCCCN21` (stereo unspecified): the inhibition was inactive: 7.03%.

As for `O=C(NC1CCS(=O)(=O)C1)NP(=S)(Oc1ccccc1)Oc1ccccc1` (stereo unspecified), the inhibition was inactive: -11.9%.

For the compound `CCNC(=S)/N=C(\N)N[N+](=O)[O-]`, the inhibition was inactive: -7.88%.

For `c1ccc(-c2nn[nH]n2)c(-c2nn[nH]n2)c1`, the inhibition was inactive: 1.64%.

As to `Cc1ccc(NP(=O)(Oc2cccc(C)c2)Oc2cccc(C)c2)nc1`, the inhibition was inactive: 4.36%.

Consider `Cc1ccccc1OP(=O)(Nc1ccccn1)Oc1ccccc1C`, for which the inhibition is inactive: 4.9%.

As to `CC(NC(=O)COC(=O)C(O)(c1ccccc1)c1ccccc1)c1ccccc1` (stereo unspecified), the inhibition is inactive: -4.88%.

Regarding `CN(C)C(=O)Oc1noc2ccccc12`, the inhibition is inactive: -1.59%.

On to `O=c1c2cc([N+](=O)[O-])ccc2[nH]c2c([N+](=O)[O-])cc([N+](=O)[O-])cc12`, for which the inhibition is inactive: 11.2%.

`COC(=O)c1cc2c(s1)N=C(c1ccccc1)N(C)P2(=O)N1CCOCC1` (stereo unspecified): the inhibition is inactive: 2.18%.

For the compound `CC(=O)NC(SC(=S)N(CC(C)C)CC(C)C)C(Cl)(Cl)Cl` (stereo unspecified), the inhibition was inactive: -4.12%.

Consider `Cc1ccc(OP(=O)(Nc2ccccn2)Oc2ccc(C)cc2)cc1`, for which the inhibition is inactive: -1.43%.

`O=C(OC1CN2CCC1CC2)c1ccccc1` (stereo unspecified): the inhibition was inactive: -0.02%.

As for `CCC(=O)N1C2C3N(C(=O)CC)C1C1N(C(=O)CC)C(C(N1C(=O)CC)N3C(=O)CC)N2C(=O)CC`, the inhibition is inactive: -4.36%.

With `CCOP(=O)(Nc1ccccc1)OCC`, the inhibition was inactive: 4.67%.

Turning to `Cc1cc(SC(NC(=O)c2ccc(F)cc2)C(Cl)(Cl)Cl)ncn1` (stereo unspecified), the inhibition is inactive: 2.84%.

`CN(C(=O)Cc1ccc(Cl)c(Cl)c1)[C@H]1CCCC[C@@H]1N1CCCC1`: the inhibition was inactive: 6.23%.

Consider `Cc1ccc(NP(=O)(Oc2ccccc2F)Oc2ccccc2F)nc1`, for which the inhibition was inactive: -6.78%.

Regarding `CCn1c(=O)n(C2CCN(CC3CCCCCCC3)C[C@H]2CO)c2ccccc21` (stereo partly specified), the inhibition was inactive: 1.19%.

As to `O=C(O)c1ccccc1[As](=O)(O)O`, the inhibition is inactive: -14.4%.

As to `CC(=O)Nc1ccc([As](=O)(O)O)cc1`, the inhibition is inactive: -1.75%.

For `CCCC1OP(N)(=O)OCC1CC` (stereo unspecified), the inhibition was inactive: 9.62%.

Consider `CN(C)P(=O)(N(C)C)n1c(Nc2ccccc2)nnc1-c1ccccc1`, for which the inhibition was inactive: 2.57%.

`O=P(Nc1nc2ccc(Cl)cc2s1)(c1ccccc1)c1ccccc1`: the inhibition is inactive: -5.58%.

In the case of `CN(C(=O)Cc1ccccc1)C1CC[C@@]2(CCCO2)C[C@@H]1N1CCCC1` (stereo partly specified), the inhibition is inactive: -6.26%.

On to `CCN(N=Nc1nonc1N)c1nonc1N`, for which the inhibition was inactive: 22.4%.

`Nc1cccc2ccc([As](=O)(O)O)cc12`: the inhibition was active: 32.5%.

Take `COc1ccccc1OP(=O)(Nc1ccc(C)cn1)Oc1ccccc1OC`: the inhibition was inactive: 8.12%.

For the compound `Cc1ccc(OP(=O)(Nc2nccs2)Oc2ccc(C)cc2)cc1`, the inhibition was inactive: 6.06%.

Regarding `Clc1ccc(Cl)c(NC2=NCC(CBr)S2)c1` (stereo unspecified), the inhibition is inactive: 4.62%.

Take `CN1CCCC(OC(=O)C(c2ccccc2)c2ccccc2)C1` (stereo unspecified): the inhibition was inactive: 2.34%.

On to `NC(=O)c1cc([N+](=O)[O-])cc([N+](=O)[O-])c1N`, for which the inhibition was inactive: 7.34%.

For the compound `CN(C(=O)Cc1ccc(Cl)c(Cl)c1)[C@H]1CCCC[C@H]1N1CCCC1`, the inhibition is inactive: 2.75%.

On to `Cc1ccc(N/C(=N/P(=O)(N2CCOCC2)N2CCOCC2)N2CCOCC2)cc1`, for which the inhibition was inactive: 5.09%.

For the compound `CC(C)CC(=O)NC(Sc1ccc(Cl)cc1)C(Cl)(Cl)Cl` (stereo unspecified), the inhibition is inactive: 9.41%.

For `Nc1cc(N)c2nonc2c1[N+](=O)[O-]`, the inhibition was inactive: -10.1%.

With `Oc1ccccc1CNc1ccccn1`, the inhibition was inactive: -6.67%.

Take `O=C(NC(Sc1ccncn1)C(Cl)(Cl)Cl)c1ccccc1` (stereo unspecified): the inhibition is inactive: 0.03%.

With `CC(=O)N1C2C3N(C(C)=O)C1C1N(C(C)=O)C(C(N1C(C)=O)N3C(C)=O)N2C(C)=O`, the inhibition is inactive: 6.6%.

As to `O=[N+]([O-])c1cccc2n[nH]nc12`, the inhibition is inactive: 14.2%.

Regarding `Cc1ccc(NP(=O)(Oc2ccccc2)Oc2ccccc2)nc1`, the inhibition was inactive: 3.41%.

For `O=[N+]([O-])c1cc([N+](=O)[O-])c(CCNc2ccccc2)c([N+](=O)[O-])c1`, the inhibition is inactive: 22.1%.

Regarding `CCc1nc2c(n1)c1c(non1O)c1c2no[n+]1[O-]`, the inhibition is inactive: 6.31%.

On to `COc1ccc(C2=NCC(CBr)S2)cc1` (stereo unspecified), for which the inhibition is inactive: -17.6%.

Take `CC(C)=N/N=C(\N)N[N+](=O)[O-]`: the inhibition is inactive: -14.5%.

With `CC(C)c1nc(Nc2ccccc2)n(P(=O)(N(C)C)N(C)C)n1`, the inhibition was inactive: -4.69%.

As for `CN(C)C(=O)OCCc1n(C)cc[n+]1C`, the inhibition was inactive: -0.56%.

For `c1cc(-c2nn[nH]n2)ccc1-c1nn[nH]n1`, the inhibition is inactive: -7.78%.

For the compound `CC1CCN(C(=O)Oc2c(Cl)cc(Cl)c3cccnc23)CC1`, the inhibition was inactive: -0.8%.

As to `Nc1ccc([As](=O)(O)c2ccc(N)cc2)cc1`, the inhibition is inactive: 4.73%.

Take `C[N+]1=C2C=CC=CC=C2SC12C([N+](=O)[O-])=CC([N+](=O)[O-])=C[C-]2[N+](=O)[O-]` (stereo unspecified): the inhibition was inactive: 15.8%.

For `CCN(/C(=N/P(=O)(N1CCOCC1)N1CCOCC1)N1CCOCC1)c1ccc(OC)cc1`, the inhibition is inactive: 2.13%.

For the compound `O=C(Nc1cc([As](=O)(O)O)ccc1O)c1ccccc1`, the inhibition was inactive: 12%.

With `O=P1(N(CCCl)CCCl)OCCCS1` (stereo unspecified), the inhibition is inactive: -3.47%.

Consider `O=[N+]([O-])c1cccc(NC2=NCC(CBr)S2)c1` (stereo unspecified), for which the inhibition was inactive: -1.6%.

Take `COC(=O)C1(C)COP(=O)(Nc2ccccc2)OC1` (stereo unspecified): the inhibition was inactive: 13.4%.

Regarding `O=C(O)CNc1ccc([As](=O)(O)O)cc1`, the inhibition is inactive: -6.27%.

Regarding `CC(C)(C)C(=O)NC(Sc1ccncn1)C(Cl)(Cl)Cl` (stereo unspecified), the inhibition was inactive: 13.4%.

Turning to `O=[N+]([O-])c1ncn(CCn2ncnc2[N+](=O)[O-])n1`, the inhibition is inactive: 4.23%.

In the case of `CCCCOc1ccc(C(=O)NCC2(N3CCCCC3)CCCCC2)cc1OC`, the inhibition is inactive: -15.3%.

Turning to `Cc1cc(SC(NC(=O)c2ccccc2)C(Cl)(Cl)Cl)nc(C(C)C)n1` (stereo unspecified), the inhibition is inactive: -5.43%.

As for `COP(=O)(OC)N1CC1c1ccccc1` (stereo unspecified), the inhibition was inactive: -10.4%.

Take `CC1CCNP(=O)(N(CCCl)CCCl)O1` (stereo unspecified): the inhibition is inactive: 8.31%.

In the case of `O=C(O)C(O)c1ccc(N(CCCl)CCCl)cc1` (stereo unspecified), the inhibition is inactive: -11.8%.

As to `CCOC(=O)Nc1ccc([As](=O)(O)O)c(O)c1`, the inhibition is inactive: 12.7%.

In the case of `O=[N+]([O-])c1ccc(Nc2ccc(Oc3ccc([N+](=O)[O-])cc3[N+](=O)[O-])cc2)c([N+](=O)[O-])c1`, the inhibition was inactive: 3.5%.

For the compound `Cc1cc(SC(NC=O)C(Cl)(Cl)Cl)ncn1` (stereo unspecified), the inhibition is inactive: -8.85%.

As for `O=P(Nc1ccccn1)(c1cccc2ccccc12)c1cccc2ccccc12`, the inhibition is inactive: -4.54%.

Turning to `CCOC(=O)Nc1cccc([As](=O)(O)O)c1`, the inhibition was inactive: -0.56%.

Regarding `O=C(COc1ccccc1)OC1CN2CCC1CC2` (stereo unspecified), the inhibition is inactive: 1.09%.

As for `O=C(Nc1ccncc1[N+](=O)[O-])c1ccc([N+](=O)[O-])cc1[N+](=O)[O-]`, the inhibition was inactive: -7.88%.

Consider `O=C(O)C(=O)c1ccc(N(CCCl)CCCl)cc1`, for which the inhibition was inactive: 9.59%.

Turning to `COP1(=S)c2c(C)nn(CCC#N)c2N=C(c2ccc(F)cc2)N1C` (stereo unspecified), the inhibition was inactive: -10.2%.
